From PMC4158421, “Screening-based discovery of Aspergillus fumigatus plant-type chitinase inhibitors” (Febs Letters, 2014) come the findings set out here.

By UniProt entry, the sequences of proteins in these tests, tags left out. Residues count along the entry.
UniProt Q873Y0, 28-337 limits assumed: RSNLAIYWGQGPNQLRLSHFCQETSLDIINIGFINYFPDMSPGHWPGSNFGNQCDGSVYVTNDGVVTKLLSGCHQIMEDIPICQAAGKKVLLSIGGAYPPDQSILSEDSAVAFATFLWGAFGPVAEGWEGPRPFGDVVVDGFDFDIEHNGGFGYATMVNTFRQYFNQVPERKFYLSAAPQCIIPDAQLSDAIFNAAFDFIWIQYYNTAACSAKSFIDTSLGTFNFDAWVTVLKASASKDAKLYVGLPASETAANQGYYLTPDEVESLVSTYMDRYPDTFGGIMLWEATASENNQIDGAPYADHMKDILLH
UniProt Q9BZP6, 22-476 limits assumed: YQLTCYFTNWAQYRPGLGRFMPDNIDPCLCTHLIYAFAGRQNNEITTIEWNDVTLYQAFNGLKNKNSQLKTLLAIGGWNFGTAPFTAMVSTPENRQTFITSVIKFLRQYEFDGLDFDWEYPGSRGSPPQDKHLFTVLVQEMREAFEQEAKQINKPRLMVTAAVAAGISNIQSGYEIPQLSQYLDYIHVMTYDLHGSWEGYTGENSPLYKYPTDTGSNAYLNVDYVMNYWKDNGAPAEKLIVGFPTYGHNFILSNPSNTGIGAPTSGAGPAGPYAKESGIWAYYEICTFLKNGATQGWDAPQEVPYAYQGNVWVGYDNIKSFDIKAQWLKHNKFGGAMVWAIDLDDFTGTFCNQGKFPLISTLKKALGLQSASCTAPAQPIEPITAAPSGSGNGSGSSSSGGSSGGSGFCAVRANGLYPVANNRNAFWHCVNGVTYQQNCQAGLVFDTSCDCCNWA

pIC50, pKi: −log10 of the molar value. Read-outs that look alike come from different tables or passages of the source.

One experiment has as its target AfChiA1 (Aspergillus fumigatus, UniProt Q873Y0). The experiment can be described thus: Steady-state kinetics, Lineweaver-Burk analysis against AfChiA1. Conditions: for pKi: read-out: inhibition constant Ki against AfChiA1, competitive inhibition model, 50 μM to 1 mM 4MU-GlcNAc3.
For experiment [1], the target named is A. fumigatus chitinase B1 (AfChiB1) (Aspergillus fumigatus, UniProt Q873X9). Briefly: Counter screening assay against AfChiB1. The experiment is classed as biochemical. As to conditions: for pIC50: read-out: GH18 family chitinase IC50, bacterial-type, AfChiB1, substrate 4MU-NAG2. How it is done:
Counter screening assays to determine an IC50 against other GH18 family chitinases included S. cerevisiae CTS1 (ScCTS1, model plant-type chitinase) and three bacterial-type chitinases (A. fumigatus chitinase B1 [AfChiB], acidic mammalian chitinase [AMCase] and Homo sapiens chitinase 1/chitotriosidase [HsCHT]). Assays were performed as per AfChiA1 with the following modifications, [29]. Bacterial-type chitinases (AfChiB, AMCase and HsCHT) utilised 4-methylumbelliferyl β-D-N-N-diacetylchitobioside (4MU-NAG2) as a substrate and for these pentoxifylline (Sigma) was used as a control inhibitor [30]. Substrate concentrations for IC50 determinations were selected according to the published Km values for each enzyme, [29], [31], [32]. The mode of inhibition was established by Lineweaver–Burk plots of steady-state kinetics with 50 μM to 1 mM of 4MU-GlcNAc3 in the presence of different concentrations of selected compounds [23].

Experiment [2] deals with Aspergillus fumigatus chitinase A1 (AfChiA1) (Aspergillus fumigatus, UniProt Q873Y0). The experiment can be described thus: AfChiA1 fluorescent enzyme assay (4MU-GlcNAc3 hydrolysis), HTS and potency determination. The experiment is classed as biochemical. As to the method: The Dundee Drug Discovery Unit (DDU) diversity set of 59,904 compounds was solubilised in DMSO (final maximum assay concentration of 1% (v/v) in all samples including controls) and a HTS performed in singlet at a concentration of 30 μM. Library compounds and DMSO controls were transferred to 384-well black polystyrene plates (Matrix) using a Hummingbird (Genomic Solutions). Columns 1–22 received library compounds, columns 23 and 24 were reserved for high/low controls (DMSO) and an 8-point standard inhibitory curve with acetazolamide (Sigma), a micromolar AfChiA1 inhibitor [26]. Quality control (QC) plates, two per six assay plates, consisted of low control (columns 1–10), high control (columns 11–20) and a standard curve (columns 21–24). AfChiA1 catalyses the hydrolysis of chitin and an existing assay liberating 4-methylumbelliferyl (4-MU) from the fluorogenic substrate 4-methylumbelliferyl β-D-N,N′,N″-triacetylchitotrioside (4-MU-GlcNAc3, Sigma) was optimised for microtitre plate format compatible with HTS [26]. AfChiA1 activity was assayed in McIlvaine’s buffer (100 mM citric acid, 200 mM sodium phosphate [pH 5.5]) and 0.05 mg/ml BSA (Pierce) in a final reaction volume of 42 μl. Each reaction contained 10 nM AfChiA1 except eight wells in column 24 (screening plates) and columns 1–10 (QC plates), to which only buffer was added to determine background signal. The reaction was initiated by 100 μM 4MU-GlcNAc3 and both additions were executed using a FlexDrop reagent dispenser (PerkinElmer). Assay plates were incubated on a microtitre plate shaker (Heidolph) at room temperature for 70 min. Fluorescence generated from the release of 4-MU was quantified using an EnVision 2102 multilabel reader (Perkin Elmer).
The Activity Base Suite (Abase) version 5.4 from IDBS was used for all data processing and analyses. For all compounds, the raw relative fluorescent units (RFUs) were corrected and normalised to percentage inhibition (PI) according to the equations in Table S1. Calculation of the Z-factor to determine the quality of the screening assay was as follows: Z-factor=1-(3SDhigh control+3SDlow control)/(Meanhigh control-Meanlow control) for which SDhigh control and SDlow control represent the standard deviations of the response from 8 to 12 control wells (uninhibited signal) and 8 to 12 background signal wells, respectively. Subsequent curve fitting to determine the IC50 was with XLFit version 4.2 (IDBS) using a four-parameter dose response curve.
Initial hits were (a) re-assayed at 30 μM for verification and (b) potency determined to generate an approximate IC50. Compounds were transferred into columns 1 and 13 of a 384-well polypropylene plate (Matrix) and serially diluted in 100% DMSO through 10 half-log increments in row orientation using a JANUS 8-channel Varispan automated workstation (PerkinElmer). This produced a source plate containing thirty test and two standard inhibitor curves (100× final assay concentration) in columns 1–10 and 13–22. An additional QC plate containing acetazolamide was also generated. From these source plates 0.5 μl, corresponding to a final concentration range of 30 μM to 1.5 nM, were transferred into replicate black 384-well polystyrene assay plates in duplicate. AfChiA1 and substrate were added as in the original screen.
Compounds 1, 2, 6 and 7 (ChemBridge Corporation, San Diego, CA, USA); compounds 3, 4 and 8 (ChemDiv, San Diego, CA, USA); compounds 9 and 11 (Asinex Europe, Rijswijk, NED); compound 5 (Maybridge, Fisher Scientific, Loughborough, UK); compound 10 (InterBioScreen, Moscow, RUS) and compound 12 (Enamine, Monmouth, NJ, USA). For accurate duplicate potency determinations, the starting concentration was increased from 30 μM to 120 μM and diluted as described.

Experiment [3] concerns the target acidic mammalian chitinase (AMCase) (Homo sapiens, UniProt Q9BZP6). The experiment can be described thus: Counter screening assay against AMCase. The class given is biochemical.
The mark [4] stands for this setting: read-out: GH18 family chitinase IC50, plant-type, AfChiA1, repeat potency determinations in duplicate on re-purchased compounds, 10-point dilution starting at 120 μM.

Consider `Cc1c(C(=O)N2CCN(CCc3ccccc3)CC2)oc2ccccc12`, for which the “mode of inhibition of AfChiA1” value at AfChiA1 (Lineweaver-Burk analysis) is reported as “competes with the pseudo-substrate 4MU-GlcNAc3”. Further, at AfChiA1, the pKi is 4.97. The values for the pIC50 in experiment [1] and in experiment [2] (setting [4]) were less than 4.00 and 4.94, respectively.
`Cc1nc2scc(-c3ccccc3)c2c(=O)[nH]1`: the figures for the pIC50 in experiment [1] and in experiment [2] (setting [4]) were 4.18 and 4.63, respectively.
With `CSc1ccc(C2C(C#N)=C(N)Oc3nc(C)[nH]c(=O)c32)cc1` (stereo not drawn), the pIC50 in experiment [2] (setting [4]) is 4.84.
Regarding `COc1ccccc1-c1noc2nc(C)[nH]c(=O)c12`, in experiment [3], the “drop-off in potency against AMCase compared to AfChiA1” value was “fourfold drop-off in potency”. In addition, on AfChiA1, the negative-log Ki (pKi) is 5.92. Also, in experiment [1], the “activity against AfChiB” value was “no activity” and the pIC50 is less than 4.00. Moreover, the pIC50 in experiment [2] (read-out: initial IC50 against AfChiA1, original potency determination of primary hits, 10-point curves from 30 μM, duplicate) was 5.77.
Take `NC1=C(c2nc3ccccc3[nH]2)C(=O)CN1CCc1ccccc1`: the pIC50 in experiment [2] (setting [4]) is 4.71.
For the molecule `CC(=O)c1cnc2c(-c3ccc(Cl)cc3)cnn2c1C`, the “fold difference of repeat AfChiA1 IC50 versus original potency determination” value in experiment [2] (re-purchased compound versus original IC50) is recorded as 15 fold. Further, the pIC50 in experiment [2] (setting [4]) was 4.46.
Regarding `Cc1nn(C)cc1C(=O)Nc1ccc(Cl)cc1`, the negative logarithm of the IC50 (pIC50) in experiment [2] (setting [4]) is 4.23.
For `CCc1nnc(NC(=O)c2sc3nccc(COC)c3c2N)s1`, the pIC50 in experiment [2] (setting [4]) is 4.79.
In the case of `Cc1nc2sc(C(=O)Nc3c(F)cc(F)cc3Br)c(C)c2c(=O)[nH]1`, in experiment [2] (setting [4]), the pIC50 is 5.18.
